This passage reports p24 results from patent US6989263B1, “Method for identifying and using compounds that inactivate HIV-1 and other retroviruses by attacking highly conserved zinc fingers in the viral nucleocapsid protein” (The United States of America as represented by the …, priority 1994, dated 2006).

The series concerns HIV-1MN. As to the kind of experiment: Effect of NOBA on intact HIV-1MN (p24, zinc, TCIU of pelleted virus). It is filed as cell-based. The settings on record: 2 hours.

Structures are written as SMILES.

Consider `NC(=O)c1cccc(N=O)c1` [NOBA, 3-nitrosobenzamide], for which the p24 worked out at 90 µg/mL (NOBA 0.03 mM), 83 µg/mL (NOBA 0.3 mM) and 58 µg/mL (NOBA 3.0 mM).
